We go through 1 substance from paper PMC3151279, “Cross-Reactivity of Anthrax and C2 Toxin: Protective Antigen Promotes the Uptake of Botulinum C2I Toxin into Human Endothelial Cells” (2011).

This assay addresses C2II channel, trypsin-activated binding component of Clostridium botulinum C2 toxin (Clostridium botulinum).

By Kd is commonly meant the free concentration of one partner at which half of the binding sites on the other are occupied at equilibrium, for simple one-to-one binding. A lower Kd goes with higher affinity.

The substance “anthrax edema factor (from UniProt P40136 34-800)” returned a Kd of 13 nM.
